Measured values: article PMC12490008 (Environmental Science & Technology, 2025)

Test system: River Chriesbach biofilm suspension (100%, 10%, 1%)

Anabaenopeptin B
half-life 1 (h), biphasic model: 41.06 h | half-life 2 (h), biphasic model: 41.47 h
